Measured values as given in US20180016348A1 (Janssen / Centocor, published 2018).

Columns and labels:
[1] = biological target: T1, neuraminidase (NA) of H5N1 A/Hong Kong/156/1997 (influenza A virus H5N1 A/Hong …, UniProt Q9W7Y7 1-450); test: cell-based or functional assay
[2] = biological target: T2, neuraminidase (NA) of H1N1 A/Brisbane/59/2007 (influenza A virus H1N1 …); test: flow cytometry on NA-transfected 293-F cells, IgG 5 µg/ml; +++: 75-100% binding
T2 construct: whole, on cells

[3] = biological target: neuraminidase (NA) of H5N1 A/Vietnam/1194/2004 (NIBRG-14) (influenza A virus H5N1 …); test: as above
[4] = biological target: T1, neuraminidase (NA) of H5N1 A/Hong …; test: cell-based or functional assay; remark: listed apart in the source
[5] = biological target: T3, neuraminidase (NA) of H1N1 A/California/07/2009 (influenza A virus H1N1 …); test: flow cytometry on NA-transfected 293-F cells, IgG 5 µg/ml; ++: 50-75% binding
T3 construct: whole, on cells

[6] = biological target: T3, neuraminidase (NA) of H1N1 …; test: flow cytometry on NA-transfected 293-F cells, IgG 5 µg/ml; +++: 75-100% binding
[7] = biological target: T4, neuraminidase (NA) of H3N2 A/Perth/16/2009 (influenza A virus H3N2 A/Perth/16/2009); test: flow cytometry on NA-transfected 293-F cells, IgG 5 µg/ml; ++: 50-75% binding
T4 construct: whole, on cells

[8] = biological target: T5, neuraminidase (NA) of H1N1 A/Puerto Rico/8/1934 (influenza A virus H1N1 A/Puerto …, UniProt P03468 1-454); test: as above
T5 construct: whole, on cells

| Binder | IC50 of virus neutralization (VNA on MDCK cells) [1] | percentage of stained cells (relative binding, FACS) [2] | percentage of stained cells (relative binding, FACS) [3] | EC50 of neuraminidase inhibition (NA-XTD assay, whole virus) [4] | percentage of stained cells (relative binding, FACS) [5] | percentage of stained cells (relative binding, FACS) [6] | percentage of stained cells (relative binding, FACS) [7] | percentage of stained cells (relative binding, FACS) [8] |
| --- | --- | --- | --- | --- | --- | --- | --- | --- |
| CR12040 (antibody, V domains shown) VH: QVQLVQSGAEVKKPGASVKVSCKASGYTFTNYYINWVRQAPGQGLEWMGRINPLHGGTGFAEKFQGRLTMTRDTSTSTVDMELSSLRSEDTAIYYCVKERDTTMATDYYGRSGCFDYWGQGTLVTVSS VL: EIVLTQSPATLSLSPGERATLSCRASQSVRSYLAWYQQKPGQAPRLLIYDASNRATGIPARFSGSGSGTDFSLTISSLEPEDFAVYYCQQRSNWPITFGQGTRLEIK | > 50 µg/mL | 75 to 100% | 75 to 100% | > 100 µg/mL | 50 to 75% |  |  |  |
| CR12042 (antibody, V domains shown) VH: EVQLVESGAEVRKPGSSVKVSCTASGDTFSSYTITWVRQAPGQGLEWMGEIIPIFGTANYAQKFQGRVTLTADESTTTAYMDLSSLRSEDTAVYYCARGPDNHSDRYFYYGMDVWGQGTTVTVSS VL: EIVLTQSPLSLPVTPGEPASISCRSSQSLLHSTGNNYLDWYLQKPGQSPQLLIYLGSNRASGVPDRFSGSGSGTDFTLKISRVEAEDVGVYYCMQALQTPRTFGQGTKVDIK | 0.29 µg/mL | 75 to 100% | 75 to 100% | 0.02 µg/mL |  | 75 to 100% | 50 to 75% | 50 to 75% |
